Results of unrelated studies side by side (data: NIAID ChemDB).

Shared fields: target-level tests; agent: HIV-1; protein: Protease

An empty or dashed field is not shown. Conditions beyond the fields shown may differ between rows. ICn is the concentration giving n% inhibition.

structure | strain or isolate | read-out | conditions | mutations | method | value
COC(=O)[C@]12CCC(C)(C)C[C@H]1C1=CC[C@@H]3[C@@]4(C)CC/C(=N\OC(=O)CCCCC(=O)OC[C@H]5O[C@@H](n6cc(C)c(=O)[nH]c6=O)C[C@@H]5N=[N+]=[N-])C(C)(C)[C@@H]4CC[C@@]3(C)[C@]1(C)CC2 |  | IC50 |  |  | HPLC | 16 µM
COc1ccc(CS(=O)(=O)C[C@@H](NC(C)=O)C(=O)N[C@@H](Cc2ccccc2)[C@H](O)C(=O)N2CSC(C)(C)[C@H]2C(=O)NCc2ccccc2C)cc1 |  | IC50 |  |  |  | <0.001 µM
C[C@H]1[C@H](C)CC[C@]2(C(=O)O)CC[C@]3(C)C(=CC[C@@H]4[C@@]5(C)CC[C@H](O)C(C)(C)[C@@H]5CC[C@]43C)[C@H]12 |  | IC50 |  |  | HPLC | 8 µM
Cc1ccc(S(=O)(=O)N(CC(C)C)[C@@H](CCCCNC(=O)CNCc2ccccc2)C(=O)O)cc1 |  | Ki |  |  | FRET | >0.3 µM
O=c1oc2c(O)c(O)cc3c(=O)oc4c(O)c(O)cc1c4c23 |  | IC50 |  |  | substrate cleavage / fluorescence | 9 µg/mL
COC(=O)CCCC(=O)O[C@H]1CC[C@@]2(C)C(CC[C@]3(C)C2CC=C2C4CC(C)(C)CC[C@]4(C(=O)OC)CC[C@]23C)C1(C)C |  | IC50 |  |  | HPLC | >50 µM
COc1ccc(Cc2c(O)c3cccc(C)c3oc2=O)cc1OC |  | IC50 | pH 5.2 |  | HPLC | 23 µM
CCCCNC(=O)[C@H](C)C[C@H](O)[C@H](CC1CCCCC1)NC(=O)[C@H](CC(N)=O)NC(=O)[C@H](CCC(N)=O)NC(=O)OC(C)(C)C |  | Ki |  |  |  | 1.05 µM
COC(=O)[C@]12CCC(C)(C)CC1C1=CCC3[C@@]4(C)CC[C@@H](N)C(C)(C)C4CC[C@@]3(C)[C@]1(C)CC2 |  | IC50 |  |  | HPLC | >20 µM
CC1(C)CC[C@]2(C(=O)O)CCC3=C(CCC4[C@@]5(C)C[C@H](O)[C@H](O)[C@@](C)(C(=O)O)C5CC[C@@]34C)C2C1 |  | IC50 |  |  | substrate cleavage / fluorescence | 89 µg/mL
CC(C)NC(=O)[C@H](Cc1ccccc1)NCC(O)[C@@H]1Cc2ccc(cc2)OCCCC(=O)N[C@@H](CC(N)=O)C(=O)N1 |  | Ki |  |  |  | 6.2 µM
Cc1c(O)cccc1C(=O)N[C@@H](Cc1ccccc1)[C@H](O)C(=O)N1CSC(C)(C)[C@H]1C(=O)NCc1ccncc1 |  | IC50 |  |  | HPLC | >0.05 µM
CCCCNC(=O)[C@H](C)C[C@H](O)[C@H](CC1CCCCC1)NC(=O)[C@@H](NC(=O)[C@H](CCCN)NC(=O)OCc1ccccc1)C(C)C |  | Ki |  |  |  | 0.008 µM
COc1ccc(Cc2c(O)c3ccccc3oc2=O)cc1OC |  | IC50 | pH 5.2 |  | HPLC | 84 µM
O=c1ccoc2cccc(O)c12 | SF2 | IC50 |  |  | HPLC / fluorescence | 150 µM
Cc1ccccc1CNC(=O)[C@@H]1CSCN1C(=O)[C@@H](O)[C@H](Cc1ccccc1)NC(=O)CC(C)(C)C(=O)OC[C@@H]1O[C@H](n2cc(C)c(=O)[nH]c2=O)C[C@H]1N=[N+]=[N-] | IIIB | IC50 |  |  |  | >5 µM
CC(C)[C@H](NC(=O)N(C)Cc1ccccn1)C(=O)N[C@@H](Cc1ccccc1)[C@H](O)[C@H](O)[C@H](Cc1ccccc1)NC(=O)[C@@H](NC(=O)N(C)Cc1ccccn1)C(C)C |  | IC50 |  |  | fluorescence | <0.001 µM
Cc1ccc(S(=O)(=O)N(CC(C)C)[C@@H](CCCCNC(=O)[C@H](CC2C=Nc3ccccc32)NC(=O)OC(C)(C)C)C(=O)O)cc1 |  | Ki |  |  | FRET | 0.0016 µM
Cc1ccccc1CNC(=O)[C@@H]1CSCN1C(=O)[C@@H](O)[C@H](Cc1ccccc1)NC(=O)C(C)C(C)C(=O)O | IIIB | IC50 |  |  |  | <5 µM
CC[C@H](C)[C@H](NC(=O)[C@@H]1CCCN1C(=O)[C@H](Cc1ccccc1)NC(=O)C=O)C(=O)N[C@H](C(N)=O)C(C)C |  | Ki |  |  | absorbance | 700 µM
COc1c(O)cc2oc3cc(O)c(CC=C(C)C)c(O)c3c(=O)c2c1CC=C(C)C |  | Ki |  |  | HPLC | 10.7 ± 0.95 µM
O=c1c(O)c(-c2ccc(O)cc2)oc2cc(O)cc(O)c12 | SF2 | IC50 |  |  | HPLC / fluorescence | 250 µM
CCCCC1(c2ccccc2)CC(O)=C(SCCc2ccccc2)C(=O)O1 |  | IC50 | pH 4.7 |  | HPLC | 0.4 µM
O=S1(=O)N(Cc2ccc(-c3cccs3)cc2)[C@H](COc2ccccc2)[C@H](O)[C@@H](O)[C@@H](COc2ccccc2)N1Cc1ccc(-c2cccs2)cc1 |  | Ki |  | PR-V82A |  | 7.7 µM
C=C(C)[C@@H]1CC[C@]2(C(=O)O)CC[C@]3(C)[C@H](CC[C@@H]4[C@@]5(C)CC[C@H](O)C(C)(C)[C@@H]5CC[C@]43C)[C@@H]12 |  | IC50 |  |  | HPLC | 9 µM
Cc1cccc(C)c1OCC(=O)N[C@@H](Cc1ccccc1)[C@H](O)C(=O)N1CSC(C)(C)[C@H]1C(=O)NC1CCc2ccccc21 |  | IC50 |  |  | HPLC | <0.05 µM
Cc1ccccc1CNC(=O)[C@H]1N(C(=O)[C@@H](O)[C@H](Cc2ccccc2)NC(=O)CC(C)(C)C(=O)OC[C@@H]2O[C@H](n3cc(C)c(=O)[nH]c3=O)C[C@H]2N=[N+]=[N-])CSC1(C)C | IIIB | IC50 |  |  |  | <5 µM
O=c1oc(-c2ccccc2)cc(O)c1Sc1ccccc1 |  | IC50 | pH 5.2 |  | HPLC | 3.5 µM
C/C(=N\O)c1cccc(CN2[C@H](COc3ccccc3)[C@H](O)[C@@H](O)[C@@H](COc3ccccc3)N(Cc3cccc(/C(C)=N/O)c3)S2(=O)=O)c1 |  | Ki |  | PR-V82A |  | 0.68 µM
Cc1cn([C@H]2C[C@H](N=[N+]=[N-])[C@@H](COC(=O)CCCCC(=O)O/N=C3\CC[C@]4(C)[C@H]5CC=C6[C@@H]7CC(C)(C)CC[C@]7(C(=O)O)CC[C@@]6(C)[C@]5(C)CC[C@H]4C3(C)C)O2)c(=O)[nH]c1=O |  | IC50 |  |  | HPLC | 1.9 µM
Cc1c(O)cccc1C(=O)N[C@@H](Cc1ccccc1)[C@H](O)C(=O)N1CSC(C)(C)[C@H]1C(=O)NC1CCc2ccccc21 |  | IC50 |  |  | HPLC | <0.05 µM
CNC(=O)[C@@H](NC(=O)[C@H](OCc1ccccc1)[C@H](O)[C@@H](O)[C@@H](OCc1ccccc1)C(=O)N[C@H]1c2ccccc2C[C@H]1O)C(C)C |  | Ki |  | PR-V82A |  | 0.00015 µM
Cc1ccccc1CNC(=O)[C@@H]1CSCN1C(=O)[C@@H](O)[C@H](Cc1ccccc1)NC(=O)CC(C)(C)C(=O)O | IIIB | IC50 |  |  |  | <5 µM
O=S1(=O)N(Cc2cccc(I)c2)[C@H](COc2ccccc2)[C@H](O)[C@@H](O)[C@@H](COc2ccccc2)N1Cc1cccc(I)c1 |  | Ki |  | PR-I84V |  | 17 µM
CCCCNC(=O)[C@H](C)C[C@H](O)[C@H](CC1CCCCC1)NC(=O)[C@@H](NC(=O)CNC(=O)OC(C)(C)C)C(C)C |  | Ki |  |  |  | 0.172 µM
O=c1c(O)c(-c2ccc(O)c(O)c2)oc2cc(O)ccc12 | SF2 | IC50 |  |  | HPLC / fluorescence | 50 µM
CC(C)(C)NC(=O)[C@@H]1CCCCN1C[C@@H](O)[C@H]1Cc2ccc(cc2)OCCCCCC(=O)N[C@@H](CC(N)=O)C(=O)N1 |  | Ki |  |  |  | 0.05 µM
O=C(c1ccccc1)c1c(O)cc(-c2ccccc2)oc1=O |  | IC50 | pH 5.2 |  | HPLC | 81 µM
CC[C@H](C)[C@H](NC(=O)[C@@H]1CCCN1C(=O)[C@H](Cc1ccccc1)NC(=O)[C@H](CC(N)=O)NC(=O)[C@H](CCC(N)=O)NC(=O)C=O)C(=O)N[C@H](C(N)=O)C(C)C |  | Ki |  |  | absorbance | 90 µM
COc1cc(C(=O)O)cc2c(=O)cc(C(=O)O)oc12 | SF2 | IC50 |  |  | HPLC / fluorescence | 600 µM
COC(=O)c1ccc(CNC(=O)[C@H]2N(C(=O)[C@@H](O)[C@H](Cc3ccccc3)NC(=O)COc3c(C)cccc3C)CSC2(C)C)cc1 |  | IC50 |  |  | HPLC | >0.05 µM
O=c1cc(-c2ccc(O)cc2)oc2cc(O)cc(O)c12 | SF2 | IC50 |  |  | HPLC / fluorescence | 60 µM
C=C(C)C1CC[C@]2(C(=O)O)CC[C@]3(C)[C@H](CC[C@@H]4[C@@]5(C)CC[C@H](OC(=O)CCC(=O)O)C(C)(C)[C@@H]5CC[C@]43C)[C@@H]12 |  | IC50 |  |  | HPLC | 6 µM
O=C(O)c1cc(=O)c2ccc(O)cc2o1 | SF2 | IC50 |  |  | HPLC / fluorescence | 285 µM
O=c1c(-c2ccc(O)cc2)coc2cc(O)cc(O)c12 |  | IC50 |  |  | substrate cleavage / fluorescence | 360 µg/mL
COC(=O)CCCNC(=O)CCCCC(=O)N[C@H]1CC[C@@]2(C)C(CC[C@]3(C)C2CC=C2C4CC(C)(C)CC[C@]4(C(=O)OC)CC[C@]23C)C1(C)C |  | IC50 |  |  | HPLC | >20 µM

A second listing of 2 rows from above:

structure,strain or isolate,read-out,conditions,mutations,method,value
O=C(c1ccccc1)c1c(O)cc(-c2ccccc2)oc1=O,,IC50,pH 5.2,,HPLC,81 µM
Cc1ccccc1CNC(=O)[C@@H]1CSCN1C(=O)[C@@H](O)[C@H](Cc1ccccc1)NC(=O)C(C)C(C)C(=O)O,IIIB,IC50,,,,<5 µM